Results published in patent publication US10869933B2, “Oligomer-phenothiazine conjugates” (Nektar Therapeutics, priority 2009, dated 2020).

Sequences of proteins named here, by UniProt entry; tags and fusion partners are left off. A change or cut given only in a name is not applied to a line headed by its entry.
UniProt Q9H3N8: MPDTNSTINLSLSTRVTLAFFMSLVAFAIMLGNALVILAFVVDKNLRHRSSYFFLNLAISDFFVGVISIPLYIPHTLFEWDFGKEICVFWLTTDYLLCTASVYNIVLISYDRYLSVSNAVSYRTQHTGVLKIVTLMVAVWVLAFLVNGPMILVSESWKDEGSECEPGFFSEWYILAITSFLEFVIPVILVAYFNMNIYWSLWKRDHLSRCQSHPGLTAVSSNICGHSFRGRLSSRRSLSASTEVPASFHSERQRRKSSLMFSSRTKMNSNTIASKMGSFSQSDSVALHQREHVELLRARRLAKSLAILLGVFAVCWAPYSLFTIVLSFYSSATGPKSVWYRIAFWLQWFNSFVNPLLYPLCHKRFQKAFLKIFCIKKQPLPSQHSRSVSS

Target: T1, recombinant human H4 histamine receptor (Homo sapiens, UniProt Q9H3N8)
T1 construct: expressed in transfected cells; host or cells: CHO cells (membranes)
Assay: Histamine H4 receptor radioligand binding
Details: [3H]Histamine 8.2 nM, human rCHO-K1 cell membranes; up to 30 μM

Question: With mPEG9-N-promethazine as the substance, how does the Ki read?
Answer: > 30 µM
